The values that follow come from US8257946B2, “Cysteine protease autoprocessing of fusion proteins” (dated 2012).

By UniProt entry, the sequences of proteins in these tests, tags left out. Residues count along the entry.
UniProt Q9KS12, 3462-3646 limits assumed: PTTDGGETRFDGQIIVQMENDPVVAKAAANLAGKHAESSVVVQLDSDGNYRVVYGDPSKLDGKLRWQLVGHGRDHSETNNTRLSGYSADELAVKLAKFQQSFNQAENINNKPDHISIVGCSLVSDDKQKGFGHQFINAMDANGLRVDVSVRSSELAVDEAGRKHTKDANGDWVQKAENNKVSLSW

Molecules are shown by their SMILES.

Assay [1] has as its target T1, rCPD (cysteine protease domain of the Vibrio cholerae MARTX toxin) (Vibrio cholerae serotype O1, UniProt Q9KS12). Kind of assay: InsP6 binding to recombinant CPD. The following applies: read-out: binding constant for InsP6.
The target of assay [2] is T1, rCPD (cysteine protease domain of the Vibrio cholerae MARTX toxin). The following applies: FIG. 4; 100 μM InsP6.

With `O=P(O)(O)O[C@H]1[C@H](OP(=O)(O)O)[C@@H](OP(=O)(O)O)[C@H](OP(=O)(O)O)[C@@H](OP(=O)(O)O)[C@H]1OP(=O)(O)O`, the Kd in assay [1] is 600 nM. The “induction of autoprocessing of rCPD” value in assay [2] is listed as “induces autoprocessing of rCPD”.
